A mixed list of measured activities; the numbers were collected in NIAID ChemDB.

Shared fields: tests in culture; organism: HIV-1; cell line: MT-2; measure: EC50

Two numbers with a dash give a range or band. ECn: concentration that inhibits the pathogen or its effect by n%. Rows are shuffled and stem from different studies. Blank or dashed fields: not listed here.

compound	strain	mutations	method	value
CCOc1ccccc1N(CC(=O)Nc1ccc(S(=O)(=O)Nc2cccc(C(F)(F)F)c2)cc1)S(C)(=O)=O	IIIB		p24	<10 µM
CC(C)CCC[C@@H](C)[C@H]1CC[C@H]2[C@@H]3CC[C@H]4C[C@@H](CCC=C(c5cc(Cl)c(O)c(C(=O)O)c5)c5cc(Cl)c(O)c(C(=O)O)c5)CC[C@]4(C)[C@H]3CC[C@]12C	A012-AZT-SENS		cytopathic effect	8 µM
Cc1ccc(C)c(C(C)S(=O)(=O)c2ccc(C)c[n+]2[O-])c1	IIIB		syncytia	23 µg/mL
Cc1noc(C)c1CNC[C@H](O)[C@@]12CC[C@]3(C)[C@H](CC[C@@H]4[C@@]5(C)CC[C@H](OC(=O)[C@H]6C[C@@H](C(=O)O)C6(C)C)C(C)(C)[C@@H]5CC[C@]43C)C1=C(C(C)C)C(=O)C2	92HT599		p24 / ELISA	<1 µM
COP(=O)(c1cc(C)cc(CCC#N)c1)c1c(C(N)=O)[nH]c2ccc(Cl)c(F)c12	Clinical isolate	K103N/Y181C		0.002 µM
CC(C)[C@H](NC(=O)c1ccc2ccccc2n1)C(=O)N[C@@H](Cc1ccccc1)C(O)CN1CC2CCCCC2CN1C(=O)OC(C)(C)C	Clinical isolate strain 237228		cytopathic effect / RT activity / trypan blue	<1 µM
O=C(C(=O)N1CCN(C(=O)c2ccccc2)CC1)c1c[nH]c2ccccc12	NL4-3			5.13 µM
Cc1nc(NCCCN(C)C)c(-c2ccc3c(c2)CCN(c2ncnc4c2oc2ccccc24)C3)c(N2CCC(C)(C)CC2)c1[C@H](OC(C)(C)C)C(=O)O	NL4-3		luciferase	0.01 µM
Nc1nc2c(ncn2[C@H]2CO[C@@H](CO)O2)c(=O)[nH]1		RT-A98S F116Y Q151M T215Y	cytopathic effect / XTT	17.5 µM
C=C(C)[C@@H]1CC[C@]2(NC[C@H]([C@@H](C)O)N3CCS(=O)(=O)CC3)CC[C@]3(C)[C@H](CC[C@@H]4[C@@]5(C)CC[C@H](OC(=O)C6CC(C(=O)O)C6(C)C)C(C)(C)[C@@H]5CC[C@]43C)[C@@H]12	92HT599		p24 / ELISA	<0.01 µM
Nc1ncnc2c1ncn2[C@H]1C=C[C@@H](OCP(=O)(O)O)O1	WT		cytopathic effect	2.1 µM
COc1cc(C)c(/C=C/C2NCCc3cc(OCc4ccccc4)c(OC)cc32)cc1OC	NL4-3		fluorescence	0.036 µM
CC(C)C1=C2[C@H]3CC[C@@H]4[C@@]5(C)CC[C@H](OC(=O)[C@H]6C[C@@H](C(=O)O)C6(C)C)C(C)(C)[C@@H]5CC[C@@]4(C)[C@]3(C)CC[C@@]2(CCNC(=O)[C@@H]2CCCCN2)CC1=O	92HT599		p24 / ELISA	<1 µM
CC(C)(C)OC(=O)N1CC2CCCCC2CN1CC(O)[C@H](Cc1ccccc1)NC(=O)[C@H](CC(N)=O)NC(=O)c1ccc2ccccc2n1	Clinical isolate strain 237228		cytopathic effect / RT activity / trypan blue	<0.1 µM
Cc1ccc(C)c(CSc2c(Cl)ccc[n+]2[O-])c1	IIIB		syncytia	0.1 µg/mL
O=C(c1ccc(Nc2ccnc3cc(Cl)ccc23)cc1)N1CCOCC1			p24	2.5 µM
CCCCCC1=NN(C(=O)CCOC(=O)CCC(=O)O)OC(CCCCC)C1	NL4-3		luciferase	0.13 µM
CC(C)(C)OC(=O)N1Cc2ccccc2CN1CC(O)[C@H](Cc1ccccc1)NC(=O)[C@H](CC(N)=O)NC(=O)c1ccc2ccccc2n1	Clinical isolate strain 237228		cytopathic effect / RT activity / trypan blue	<1 µM
Cc1ccc(C(C)S(=O)(=O)c2c(C)ccc[n+]2[O-])c(C)c1	IIIB		syncytia	8.6 µg/mL
Cc1nc(C(C)(C)O)c(-c2ccc3c(c2)CCN(c2nccc(-c4cccnc4)n2)C3)c(N2CCC(C)(C)CC2)c1[C@H](OC(C)(C)C)C(=O)O	NL4-3		luciferase	0.01 µM
CC(C)(C)OC(=O)N1CCCCN1C[C@H](O)[C@H](Cc1ccccc1)NC(=O)[C@H](CC(N)=O)NC(=O)c1ccc2ccccc2n1	Clinical isolate strain 237228		cytopathic effect / RT activity / trypan blue	<1 µM
CCCCN1C(=O)N(Cc2ccc3[nH]nc(N)c3c2)[C@H](Cc2ccccc2)[C@H](O)[C@@H](O)[C@H]1Cc1ccccc1		PR-I84V	plaque count	<0.39 µM
CC(C)C1=C2[C@H]3CC[C@@H]4[C@@]5(C)CC[C@H](OC(=O)[C@H]6C[C@@H](C(=O)O)C6(C)C)C(C)(C)[C@@H]5CC[C@@]4(C)[C@]3(C)CC[C@@]2([C@@H](O)CNC(=O)C(C)(C)NC(=O)c2ccc(N3CCCCC3)cc2)CC1=O	92HT599		p24 / ELISA	<1 µM
CC1([C@@H]2CC[C@]3(NC[C@H](CF)N4CCS(=O)(=O)CC4)CC[C@]4(C)[C@H](CC[C@@H]5[C@@]6(C)CC[C@H](OC(=O)[C@H]7C[C@@H](C(=O)O)C7(C)C)C(C)(C)[C@@H]6CC[C@]54C)[C@@H]23)CC1	92HT599		p24 / ELISA	<0.01 µM
CC(C)C1=C2[C@H]3CC[C@@H]4[C@@]5(C)CC[C@H](OC(=O)[C@H]6C[C@@H](C(=O)O)C6(C)C)C(C)(C)[C@@H]5CC[C@@]4(C)[C@]3(C)CC[C@@]2([C@@H](O)CNCc2ccc(F)cc2)CC1=O	92HT599		p24 / ELISA	<1 µM
O=C(CSc1nc2ccc(NC(=O)c3ccccc3C(=O)O)cc2s1)NCc1ccccc1	IIIB		p24	>10 µM
Cc1nnc(CN(CCN(C)C)C(=O)C[C@@]23CC[C@]4(C)[C@H](CC[C@@H]5[C@@]6(C)CC[C@H](OC(=O)[C@H]7C[C@@H](C(=O)O)C7(C)C)C(C)(C)[C@@H]6CC[C@]54C)C2=C(C(C)C)C(=O)C3)o1	92HT599		p24 / ELISA	<1 µM
C[C@H](O)[C@H](CN[C@]12CC[C@@H](C3(C)CC3)[C@@H]1[C@H]1CC[C@@H]3[C@@]4(C)CC[C@H](OC(=O)[C@H]5C[C@@H](C(=O)O)C5(C)C)C(C)(C)[C@@H]4CC[C@@]3(C)[C@]1(C)CC2)N1CCS(=O)(=O)CC1	NL4-3		p24 / ELISA	<0.01 µM
O=[N+]([O-])c1ccc[n+]([O-])c1SCc1ccccc1	IIIB		syncytia	2.4 µg/mL
Cc1cc(NC(=O)C(=O)NCCN2CCN(C(=O)c3ccccc3F)CC2)ccc1Br	IIIB		p24	>10 µM
Cc1nc(Cl)c([C@H](OC(C)(C)C)C(=O)O)c(N2CCC(C)(C)CC2)c1-c1ccc2c(c1)CCN(c1ncnc3c1oc1ncccc13)C2	NL4-3		luciferase	0.0006 µM
CC(C)N(C[C@@H](O)[C@H](Cc1ccccc1)NC(=O)[C@H](CC(N)=O)NC(=O)c1ccc2ccccc2n1)NC(=O)OC(C)(C)C	Clinical isolate strain 237228		cytopathic effect / RT activity / trypan blue	<1 µM
CC(C)C1=C2[C@H]3CC[C@@H]4[C@@]5(C)CC[C@H](OC(=O)[C@H]6C[C@@H](C(=O)O)C6(C)C)C(C)(C)[C@@H]5CC[C@@]4(C)[C@]3(C)CC[C@@]2([C@@H](O)CNC(=O)C(C)(CN)NC(=O)c2ccc(Cl)cc2)CC1=O	92HT599		p24 / ELISA	<1 µM
O=c1[nH]c(=S)ccn1[C@@H]1O[C@H](COP(=O)(O)O)[C@@H](O)[C@H]1O	IIIB		syncytia / visual reading	11.7 µM
Cc1ccc(C)c(CS(=O)(=O)c2ccccn2)c1	IIIB		syncytia	8.8 µg/mL
CC1([C@@H]2CC[C@]3(NC[C@H](CO[Si](C)(C)C(C)(C)C)N4CCS(=O)(=O)CC4)CC[C@]4(C)[C@H](CC[C@@H]5[C@@]6(C)CC[C@H](OC(=O)[C@H]7C[C@@H](C(=O)O)C7(C)C)C(C)(C)[C@@H]6CC[C@]54C)[C@@H]23)CC1	92HT599		p24 / ELISA	0.01001–0.02 µM
Nc1nc(N)c2ncn([C@H]3CO[C@@H](CO)O3)c2n1		RT-L74V	cytopathic effect / XTT	38 µM
COCCOCCOCCO[C@H](C)[C@@H](CN[C@]12CC[C@@H](C3(C)CC3)[C@@H]1[C@H]1CC[C@@H]3[C@@]4(C)CC[C@H](OC(=O)[C@H]5C[C@@H](C(=O)O)C5(C)C)C(C)(C)[C@@H]4CC[C@@]3(C)[C@]1(C)CC2)N1CCS(=O)(=O)CC1	92HT599		p24 / ELISA	<0.01 µM
Cc1nc(C(C)O)c(-c2ccc3c(c2)CCN(c2nccc(-c4cccnc4)n2)C3)c(N2CCC(C)(C)CC2)c1[C@H](OC(C)(C)C)C(=O)O	NL4-3		luciferase	0.01 µM
CC1([C@@H]2CC[C@]3(NCC(C)(C)N4CCS(=O)(=O)CC4)CC[C@]4(C)[C@H](CC[C@@H]5[C@@]6(C)CC[C@H](OC(=O)[C@H]7C[C@@H](C(=O)O)C7(C)C)C(C)(C)[C@@H]6CC[C@]54C)[C@@H]23)CC1	92HT599		p24 / ELISA	>0.02 µM
CC(C)C1=C2[C@H]3CC[C@@H]4[C@@]5(C)CC[C@H](OC(=O)[C@H]6C[C@@H](C(=O)O)C6(C)C)C(C)(C)[C@@H]5CC[C@@]4(C)[C@]3(C)CC[C@@]2([C@@H](O)CNCC2(NC(=O)c3ccc(Cl)cc3)CNC2)CC1=O	92HT599		p24 / ELISA	<1 µM
CCOc1cccc(-c2cc(C(=O)N/N=C/c3ccc(OC)c(CN4CCOCC4)c3)c3ccccc3n2)c1	IIIB		p24	<10 µM
C[C@@H](O)[C@@H](CN[C@]12CC[C@@H](C3(C)CC3)[C@@H]1[C@H]1CC[C@@H]3[C@@]4(C)CC[C@H](OC(=O)[C@H]5C[C@@H](C(=O)O)C5(C)C)C(C)(C)[C@@H]4CC[C@@]3(C)[C@]1(C)CC2)N1CCS(=O)(=O)CC1	92HT599		p24 / ELISA	<0.01 µM

The first 4 rows once more:

| compound | strain | mutations | method | value |
|---|---|---|---|---|
| CCOc1ccccc1N(CC(=O)Nc1ccc(S(=O)(=O)Nc2cccc(C(F)(F)F)c2)cc1)S(C)(=O)=O | IIIB |  | p24 | <10 µM |
| CC(C)CCC[C@@H](C)[C@H]1CC[C@H]2[C@@H]3CC[C@H]4C[C@@H](CCC=C(c5cc(Cl)c(O)c(C(=O)O)c5)c5cc(Cl)c(O)c(C(=O)O)c5)CC[C@]4(C)[C@H]3CC[C@]12C | A012-AZT-SENS |  | cytopathic effect | 8 µM |
| Cc1ccc(C)c(C(C)S(=O)(=O)c2ccc(C)c[n+]2[O-])c1 | IIIB |  | syncytia | 23 µg/mL |
| Cc1noc(C)c1CNC[C@H](O)[C@@]12CC[C@]3(C)[C@H](CC[C@@H]4[C@@]5(C)CC[C@H](OC(=O)[C@H]6C[C@@H](C(=O)O)C6(C)C)C(C)(C)[C@@H]5CC[C@]43C)C1=C(C(C)C)C(=O)C2 | 92HT599 |  | p24 / ELISA | <1 µM |